PubChem BioAssay AID1259414, Drosophila RNAi Screening Center, 2018
The screen tested about 24,000 reagents; below is a random part of those with a known target gene and a result. Of all reagents, about 1,210 (5%) are marked active. 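Inactive calls also include excluded dsRNAs with several or no targets, genes unexpressed in JW18, and well A1, regardless of score.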 The numbers tell different reagents against one gene apart. Names joined by + are all predicted targets of the reagent.

Purpose: 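Genome-wide screen for host control of endosymbiont load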 (primary screen)
Cell system: Drosophila JW18 cells infected with Wolbachia
Reagents: long dsRNA against Drosophila genes, 0.25 µg dsRNA per well of a 384-well plate
Duration: 5 days
Conditions: cells persistently infected with Wolbachia before knock-down; no added drug
Measured: 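Imaged fluorescence in situ signal for Wolbachia 23S rRNA per DAPI-counted host cell, given as a robust z-score within each plate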
Scale: Wolbachia per cell robust z: higher = more Wolbachia per host cell than the plate typical
Rule for the call: 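Hit when robust z is 1.5 or more, or -1.5 or less, in at least two of three replicates; excludes dsRNAs with several or no targets, genes not expressed in JW18 and well A1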

CG18301
- Wolbachia per cell robust z, rep 1: -0.0493
- Wolbachia per cell robust z, rep 2: 0.24
- Wolbachia per cell robust z, rep 3: -6.92
- Outcome: inactive

CG3726 #1
- Wolbachia per cell robust z, rep 1: 0.407
- Wolbachia per cell robust z, rep 2: -1.91
- Wolbachia per cell robust z, rep 3: -1.3
- Outcome: inactive

CG3726 #2
- Wolbachia per cell robust z, rep 1: 1.68
- Wolbachia per cell robust z, rep 2: 0.536
- Wolbachia per cell robust z, rep 3: 0.739
- Outcome: inactive

CG10731 + sotv
- Wolbachia per cell robust z, rep 1: -0.286
- Wolbachia per cell robust z, rep 2: -5.16
- Wolbachia per cell robust z, rep 3: -0.0228
- Outcome: inactive

CG14205 #1
- Wolbachia per cell robust z, rep 1: 0.0891
- Wolbachia per cell robust z, rep 2: 0.59
- Wolbachia per cell robust z, rep 3: 1.18
- Outcome: inactive

CG14205 #2
- Wolbachia per cell robust z, rep 1: 1.11
- Wolbachia per cell robust z, rep 2: 1.33
- Wolbachia per cell robust z, rep 3: 0.738
- Outcome: inactive

CG14205 #3
- Wolbachia per cell robust z, rep 1: 1.05
- Wolbachia per cell robust z, rep 2: 0.634
- Wolbachia per cell robust z, rep 3: -0.524
- Outcome: inactive

Hsp110 (Heat shock protein 110) #1
- Wolbachia per cell robust z, rep 1: 0.853
- Wolbachia per cell robust z, rep 2: 0.794
- Wolbachia per cell robust z, rep 3: 0.957
- Outcome: inactive

Hsp110 (Heat shock protein 110) #2
- Wolbachia per cell robust z, rep 1: -4.04
- Wolbachia per cell robust z, rep 2: -1.82
- Wolbachia per cell robust z, rep 3: -1.29
- Outcome: active

Mettl5 + CG42374
- Wolbachia per cell robust z, rep 1: -0.672
- Wolbachia per cell robust z, rep 2: -1.16
- Wolbachia per cell robust z, rep 3: -0.146
- Outcome: inactive

CG8441
- Wolbachia per cell robust z, rep 1: -0.0626
- Wolbachia per cell robust z, rep 2: 0.255
- Wolbachia per cell robust z, rep 3: 0.29
- Outcome: inactive

Trpm (Transient receptor potential cation channel, subfamily M) #1
- Wolbachia per cell robust z, rep 1: -0.522
- Wolbachia per cell robust z, rep 2: 1.13
- Wolbachia per cell robust z, rep 3: 0.017
- Outcome: inactive

Trpm (Transient receptor potential cation channel, subfamily M) #2
- Wolbachia per cell robust z, rep 1: -0.539
- Wolbachia per cell robust z, rep 2: 0.0227
- Wolbachia per cell robust z, rep 3: 0.334
- Outcome: inactive

Trpm (Transient receptor potential cation channel, subfamily M) #3
- Wolbachia per cell robust z, rep 1: -0.0818
- Wolbachia per cell robust z, rep 2: -1.35
- Wolbachia per cell robust z, rep 3: 0.155
- Outcome: inactive

Trpm (Transient receptor potential cation channel, subfamily M) #4
- Wolbachia per cell robust z, rep 1: 0.715
- Wolbachia per cell robust z, rep 2: -0.323
- Wolbachia per cell robust z, rep 3: -0.664
- Outcome: inactive

CG15023 #1
- Wolbachia per cell robust z, rep 1: 0.183
- Wolbachia per cell robust z, rep 2: 0.287
- Wolbachia per cell robust z, rep 3: 0.707
- Outcome: inactive

CG15023 #2
- Wolbachia per cell robust z, rep 1: -0.0716
- Wolbachia per cell robust z, rep 2: -0.214
- Wolbachia per cell robust z, rep 3: 0.599
- Outcome: inactive

His4:CG33893 + His4:CG33875 + His4:CG33909 + 20 more
- Wolbachia per cell robust z, rep 1: -1.93
- Wolbachia per cell robust z, rep 2: 2.27
- Wolbachia per cell robust z, rep 3: 0.176
- Outcome: inactive

CG30159 #1
- Wolbachia per cell robust z, rep 1: -2.63
- Wolbachia per cell robust z, rep 2: -0.555
- Wolbachia per cell robust z, rep 3: -1.37
- Outcome: inactive

CG30159 #2
- Wolbachia per cell robust z, rep 1: 0.706
- Wolbachia per cell robust z, rep 2: -0.332
- Wolbachia per cell robust z, rep 3: -0.424
- Outcome: inactive

CG17991
- Wolbachia per cell robust z, rep 1: -3.92
- Wolbachia per cell robust z, rep 2: 0.727
- Wolbachia per cell robust z, rep 3: -2.93
- Outcome: active

CG8679
- Wolbachia per cell robust z, rep 1: 0.238
- Wolbachia per cell robust z, rep 2: -0.258
- Wolbachia per cell robust z, rep 3: -0.489
- Outcome: inactive

Qtzl (Quetzalcoatl)
- Wolbachia per cell robust z, rep 1: 0.215
- Wolbachia per cell robust z, rep 2: 0.529
- Wolbachia per cell robust z, rep 3: 0.329
- Outcome: inactive

Mvd (Mevalonate diphosphate decarboxylase) #1
- Wolbachia per cell robust z, rep 1: 0.404
- Wolbachia per cell robust z, rep 2: -1.28
- Wolbachia per cell robust z, rep 3: -0.645
- Outcome: inactive

Mvd (Mevalonate diphosphate decarboxylase) #2
- Wolbachia per cell robust z, rep 1: -2.54
- Wolbachia per cell robust z, rep 2: 0.107
- Wolbachia per cell robust z, rep 3: -0.387
- Outcome: inactive

Called active (from the list above):
Hsp110 (Heat shock protein 110) #2
- Wolbachia per cell robust z, rep 1: -4.04
- Wolbachia per cell robust z, rep 2: -1.82
- Wolbachia per cell robust z, rep 3: -1.29
- Outcome: active

CG17991
- Wolbachia per cell robust z, rep 1: -3.92
- Wolbachia per cell robust z, rep 2: 0.727
- Wolbachia per cell robust z, rep 3: -2.93
- Outcome: active
